These results are taken from patent publication US20020187514A1 (priority 1999, published 2002).

The subject of the assay is Sodium, Site 1. Briefly: Sodium, Site 1; [3H]Saxitoxin. In kind it is binding. The settings on record: read-out: Ref Kj; reference compound, QA/QC.

As to `NC1=N[C@H](O)[C@H]2[C@H]3O[C@]4(O)O[C@@H]([C@@H](O)[C@@]2(N1)[C@@H]4O)[C@]3(O)CO`, the Ki is 33.6 nM.
